Results of unrelated studies side by side (data: NIAID ChemDB).

Shared fields: growth or infection tests; organism: Herpes simplex virus 1; measure: inhibition

"inactive" is the filed call at that dose; no cut-off is given.

{"smiles": "O=C(NNCc1cccc(O)c1O)c1ccccc1O", "strain or isolate": "KOS", "method": "PCR", "cell line": "HEP-2", "dose": "3.9 µM", "value": "90%"}
{"smiles": "CCCCCCCCCCCCCCCCCC(=O)OCC(CO[C@@H]1O[C@H](CO)[C@@H](O)[C@H](O)[C@H]1O)OC(=O)CCCCCCCCCCCCCCCCC", "strain or isolate": "KOS", "method": "plaque count", "cell line": "VERO", "dose": "50 µg/mL", "value": "inactive"}
{"smiles": "Cc1cn([C@H]2C[C@H](O)[C@@H](CN)O2)c(=O)[nH]c1=O", "strain or isolate": "Strain F", "method": "plaque count", "cell line": "VERO", "dose": "153 µM", "value": "90%"}
{"smiles": "NC(N)N/N=C1\\C(=N\\NC(N)N)Cc2ccccc21", "strain or isolate": "MP", "method": "plaque count", "cell line": "HEP-2", "dose": "30 µM", "value": "inactive"}
{"smiles": "COc1ccc(-n2[nH]c3c(cnc4ccc(C)cc43)c2=O)cc1", "method": "virus yield", "cell line": "VERO", "dose": "100 µM", "value": "22%"}
{"smiles": "CC/C=C/C/C=C/C/C=C/CCCCCCCC(=O)OC[C@H](CO[C@@H]1O[C@H](CO)[C@@H](O)[C@H](O)[C@H]1O)OC(=O)CCCCCCC/C=C/C/C=C/C/C=C/CC", "strain or isolate": "KOS", "method": "plaque count", "cell line": "VERO", "dose": "50 µg/mL", "value": "100%"}
{"smiles": "O=c1c2cn(C3O[C@H](CO)[C@@H](O)[C@H]3O)c3cc(F)ccc3c-2nn1-c1ccc(F)cc1", "method": "virus yield", "cell line": "VERO", "dose": "100 µM", "value": "35%"}
{"smiles": "Cc1ccccc1Cn1cnc(=N)c2[nH]cnc21", "method": "plaque count", "cell line": "BSC-1", "dose": "6 µg/mL", "value": "0%"}
{"smiles": "CSC(=Nc1ccc([N+](=O)[O-])cc1)Nc1ccc(Oc2ccc(/C=C(/Nc3ccc([N+](=O)[O-])cc3)SC)cc2)cc1", "method": "plaque count", "cell line": "VERO", "dose": "5 µM", "value": "0%"}
{"smiles": "Cc1cn(N2C[C@H](CO)[C@H]2CO)c(=O)[nH]c1=O", "method": "plaque count", "cell line": "VERO", "dose": "10 µg/mL", "value": "0%"}
{"smiles": "CCC(=O)C(CCCCCCOc1ccc(OC)cc1Cl)C(=O)CC", "strain or isolate": "KOS", "method": "plaque count", "cell line": "VERO", "dose": "5 µg/mL", "value": "98%"}
{"smiles": "O=c1[nH]c(=O)n([C@@H]2O[C@H](CO)[C@@H](O)[C@@H]2F)cc1I", "strain or isolate": "F", "method": "virus yield", "cell line": "VERO", "dose": "1 µM", "value": "99.7%"}
{"smiles": "CNc1[nH]c(=S)nc2c1C(c1ccc([N+](=O)[O-])cc1)c1c([nH]c(=S)[nH]c1=O)O2", "cell line": "VERO", "dose": "50 µg/mL", "value": "70%"}
{"smiles": "O=S(=O)(c1ccc(OCc2ccc(Cl)cc2)cc1)c1ccc(OCc2ccc(Cl)cc2)cc1", "method": "plaque count", "cell line": "VERO", "dose": "30 µM", "value": ">50%"}
{"smiles": "Nc1ncnc2c1nnn2[C@@H]1c2ccccc2C[C@@H]1O", "strain or isolate": "F", "method": "plaque count", "cell line": "VERO", "dose": "100 µM", "value": "0%"}
{"smiles": "Cc1ccc2ncc3c(=O)n(-c4ccc(Br)cc4)[nH]c3c2c1", "method": "virus yield", "cell line": "VERO", "dose": "100 µM", "value": "27%"}
{"smiles": "COc1cccc(NS(=O)(=O)c2ccc(Oc3ccc(S(=O)(=O)Nc4cccc(OC)c4)cc3)cc2)c1", "method": "plaque count", "cell line": "VERO", "dose": "30 µM", "value": ">90%"}
{"smiles": "CN1C(=O)NC(=O)N([C@H]2C[C@H](O)[C@@H](CO)O2)C1(C)C", "strain or isolate": "42D", "method": "plaque count", "cell line": "VERO", "dose": "25 µM", "value": "52%"}
{"smiles": "Cc1ccc2c(c1)c1nn(-c3ccc(Br)cc3)c(=O)c-1cn2C1O[C@H](CO)[C@@H](O)[C@H]1O", "method": "virus yield", "cell line": "VERO", "dose": "100 µM", "value": "25%"}
{"smiles": "COc1cccc2c1C(=O)c1c(O)c3c(c(O)c1C2=O)C[C@@](O)(C(=O)CO)C[C@@H]3O[C@H]1C[C@H](N)[C@H](O)[C@H](C)O1", "method": "virus yield", "cell line": "VERO", "dose": "1 µM", "value": "11%"}
{"smiles": "O=c1[nH]c(=O)n([C@H]2C[C@H](O)[C@@H](CO)O2)cc1/C=C/Br", "strain or isolate": "KOS", "method": "plaque count", "cell line": "HELA BU", "dose": "10 µM", "value": ">99%"}
{"smiles": "O=c1ccn([C@@H]2O[C@H](CO)[C@@H](O)[C@@H]2F)c(=O)[nH]1", "strain or isolate": "F", "method": "virus yield", "cell line": "VERO", "dose": "10 µM", "value": "99.2%"}
{"smiles": "Cc1c(O)c2cc(c1O)C(c1cc(Br)ccc1O)c1cc(c(O)c(C)c1O)C(c1cc(Br)ccc1O)c1cc(c(O)c(C)c1O)C(c1cc(Br)ccc1O)c1cc(c(O)c(C)c1O)C2c1cc(Br)ccc1O", "method": "plaque count", "cell line": "VERO", "dose": "11 µg/mL", "value": "100%"}
{"smiles": "CC(=O)N[C@@H](CC(C)C)C(=O)N[C@@H](CC(C)C)C(=O)N[C@H](C=O)CCCN=C(N)N", "strain or isolate": "Fukuda", "method": "plaque count", "cell line": "CV-1", "dose": "40 µM", "value": "56%"}
{"smiles": "CCCCCC[C@@H]([C@H](C)O)n1cnc2c(N)ncnc21", "cell line": "HELA F", "dose": "50 µM", "value": "90%"}
{"smiles": "COc1ccc(-n2nc3c4cc(C)ccc4n(C4O[C@H](CO)[C@@H](O)[C@H]4O)cc-3c2=O)cc1", "method": "virus yield", "cell line": "VERO", "dose": "100 µM", "value": "30%"}
{"smiles": "[N-]=[N+]=NC[C@H]1O[C@@H](n2cc(I)c(=O)[nH]c2=O)C[C@@H]1O", "method": "plaque count", "cell line": "VERO", "dose": "100 µM", "value": "40%"}
{"smiles": "Nc1ncnc2c1ncn2CCOCP(=O)(O)OP(=O)(O)COCCn1cnc2c(N)ncnc21", "strain or isolate": "McIntyre", "method": "plaque count", "cell line": "Macrophages", "dose": "1.6 µM", "value": "70%"}
{"smiles": "O=C1CC(c2ccc([N+](=O)[O-])cc2)n2nc(-c3ccc4ccccc4c3)nc2N1", "strain or isolate": "7401H", "method": "plaque count", "cell line": "VERO", "dose": "50 µg/mL", "value": "28%"}
{"smiles": "Nc1nc2c(ncn2COCCO)c(=O)[nH]1", "strain or isolate": "Fukuda", "method": "plaque count", "cell line": "CV-1", "dose": "2.5 µM", "value": ">99%"}
{"smiles": "CCCc1nc2n(n1)C(c1ccc(OC)cc1)CC(=O)N2", "strain or isolate": "7401H", "method": "plaque count", "cell line": "VERO", "dose": "50 µg/mL", "value": "15%"}
{"smiles": "O=[N+]([O-])c1ccc(NC(=S)Nc2ccc(Cc3ccc(NC(=S)Nc4ccc([N+](=O)[O-])cc4)cc3)cc2)cc1", "method": "plaque count", "cell line": "VERO", "dose": "5 µM", "value": "0%"}
{"smiles": "CC(=O)OC[C@H]1O[C@H](O[C@H]2O[C@@H](COC(=O)/C=C/c3ccccc3)[C@H](O)C2(COC(C)=O)OC(=O)/C=C/c2ccccc2)[C@H](OC(C)=O)[C@@H](O)[C@@H]1OC(C)=O", "strain or isolate": "7401H", "method": "plaque count", "cell line": "VERO", "dose": "100 µg/mL", "value": "7.3%"}
{"smiles": "O=S(=O)(c1ccc(O)cc1)c1ccc(OCc2ccc(Cl)cc2)cc1", "method": "plaque count", "cell line": "VERO", "dose": "30 µM", "value": ">50%"}
{"smiles": "CC/C=C/C/C=C/C/C=C/CCCCCCCC(=O)OCC(CO[C@@H]1O[C@H](CO)[C@@H](O)[C@H](O)[C@H]1O)OC(=O)CCCCCCC/C=C/C/C=C/C/C=C/CC", "strain or isolate": "KOS", "method": "plaque count", "cell line": "VERO", "dose": "50 µg/mL", "value": "94%"}
{"smiles": "CC(=O)O[C@H]1C[C@](C)(O)/C=C/C[C@@H](C)/C=C/[C@@]2(C)CC[C@@H](C(C)(C)OC(C)=O)[C@H]12", "method": "cytopathic effect", "cell line": "VERO", "dose": "15 µM", "value": "89%"}
{"smiles": "CCCc1nc2n(n1)C(c1ccc([N+](=O)[O-])cc1)CC(=O)N2", "strain or isolate": "7401H", "method": "plaque count", "cell line": "VERO", "dose": "50 µg/mL", "value": "17%"}
{"smiles": "O=S(=O)(c1ccc(OCc2ccc(F)cc2)cc1)c1ccc(OCc2ccc(F)cc2)cc1", "method": "plaque count", "cell line": "VERO", "dose": "5 µM", "value": "<50%"}
{"smiles": "N=c1ncn(Cc2ccco2)c2nc[nH]c12", "method": "plaque count", "cell line": "BSC-1", "dose": "12 µg/mL", "value": "0%"}
{"smiles": "Cc1cn([C@H]2C[C@H](O)[C@@H](CN)O2)c(=O)[nH]c1=O", "method": "plaque count", "cell line": "VERO", "dose": "100 µM", "value": "97%"}
{"smiles": "O=[N+]([O-])c1ccccc1S(=O)(=O)n1c(CCc2ccccn2)nc2ccccc21", "method": "plaque count", "dose": "5 µg/mL", "value": "53%"}
{"smiles": "[N-]=[N+]=NC[C@H]1O[C@@H](n2cc(Br)c(=O)[nH]c2=O)C[C@@H]1O", "method": "plaque count", "cell line": "VERO", "dose": "100 µM", "value": "46%"}
{"smiles": "CC(=O)NC1C=CN(c2cn(C(O)CP(=O)(O)O)nn2)C(=O)N1", "strain or isolate": "TK- ACV-r KOS", "cell line": "HEL", "dose": "100 µM", "value": "0%"}
{"smiles": "O=c1ccn([C@H]2C[C@H](O)[C@@H](CO)O2)c(=O)[nH]1", "method": "virus yield", "cell line": "HeLa", "dose": "50 µM", "value": "80%"}
{"smiles": "Cc1cn([C@@H]2O[C@H](CO)[C@@H](O)[C@@H]2F)c(=O)[nH]c1=O", "strain or isolate": "F", "method": "virus yield", "cell line": "VERO", "dose": "5 µM", "value": "98.5%"}
{"smiles": "C#C[C@H]1O[C@@H](n2cc(C)c(=O)[nH]c2=O)C[C@@H]1O", "strain or isolate": "KOS", "method": "plaque count", "cell line": "HELA BU", "dose": "2.5 µM", "value": "3%"}
{"smiles": "O=C1CC(c2ccccc2)n2nc(-c3ccc4ccccc4c3)nc2N1", "strain or isolate": "7401H", "method": "plaque count", "cell line": "VERO", "dose": "50 µg/mL", "value": "25%"}
{"smiles": "O=c1c2cnc3cc(F)ccc3c2[nH]n1-c1ccc(F)cc1", "method": "virus yield", "cell line": "VERO", "dose": "100 µM", "value": "26%"}
{"smiles": "O=C1CC(c2ccc([N+](=O)[O-])cc2)n2nc(C3CCCCC3)nc2N1", "strain or isolate": "7401H", "method": "plaque count", "cell line": "VERO", "dose": "50 µg/mL", "value": "32%"}
{"smiles": "CSc1cnc(=O)n([C@H]2C[C@H](O)[C@@H](CO)O2)c1", "strain or isolate": "KOS", "method": "plaque count", "cell line": "HeLa", "dose": "200 µM", "value": "89%"}
{"smiles": "C/C=C/c1cn([C@H]2C[C@H](O)[C@@H](CO)O2)c(=O)[nH]c1=O", "strain or isolate": "KJ502", "method": "plaque count", "cell line": "VERO", "dose": "1 µM", "value": "33%"}
{"smiles": "CCCCn1cnc(=N)c2[nH]cnc21", "method": "plaque count", "cell line": "BSC-1", "dose": "25 µg/mL", "value": "0%"}
{"smiles": "Nc1nc2c(ncn2COCCO)c(=O)[nH]1", "method": "plaque count", "cell line": "BSC-1", "dose": "50 µM", "value": ">99%"}
{"smiles": "Nc1nc2c(ncn2COCCO)c(=O)[nH]1", "strain or isolate": "7401H", "method": "virus yield", "cell line": "VERO", "dose": "0.3 µg/mL", "value": ">99%"}
{"smiles": "CC1/C(=N/NC(N)N)c2ccccc2/C1=N/NC(N)N", "strain or isolate": "MP", "method": "plaque count", "cell line": "HEP-2", "dose": "30 µM", "value": "inactive"}
{"smiles": "CCCn1cnc(=N)c2[nH]cnc21", "method": "plaque count", "cell line": "BSC-1", "dose": "50 µg/mL", "value": "0%"}
{"smiles": "CCc1cn([C@H]2C[C@H](O)[C@@H](CO)O2)c(=O)[nH]c1=O", "strain or isolate": "KOS", "method": "plaque count", "cell line": "HeLa", "dose": "10 µM", "value": "99.3%"}
{"smiles": "CCCc1cn([C@H]2C[C@H](O)[C@@H](CO)O2)c(=O)[nH]c1=O", "strain or isolate": "B2006 (TK-)", "method": "plaque count", "cell line": "HELA BU", "dose": "10 µM", "value": "0%"}
{"smiles": "Clc1ncnc2nc(-c3cscn3)[nH]c12", "method": "plaque count", "cell line": "VERO", "dose": "1 µg/mL", "value": "0%"}
{"smiles": "O=[N+]([O-])c1ccc(C2c3c(nc(=S)[nH]c3Cl)Oc3nc(=S)[nH]c(Cl)c32)cc1", "cell line": "VERO", "dose": "50 µg/mL", "value": "90%"}
{"smiles": "Nc1ncnc2c1ncn2[C@@H]1O[C@H](CO)[C@@H](O)[C@@H]1O", "strain or isolate": "F", "method": "plaque count", "cell line": "VERO", "dose": "35 µM", "value": "30%"}
{"smiles": "Nc1ccn([C@H]2O[C@@H](CO)[C@H](O)[C@H]2F)c(=O)n1", "strain or isolate": "F", "method": "virus yield", "cell line": "VERO", "dose": "0.1 µM", "value": "10%"}
{"smiles": "C[C@]1(C(=O)O)C2CCc3cc4[nH]c5ccccc5c4cc3[C@@]2(C)CC[C@@H]1O", "strain or isolate": "KOS", "method": "virus yield", "cell line": "VERO", "dose": "0.5 µM", "value": ">95%"}
{"smiles": "CCc1cn([C@@H]2O[C@H](CO)[C@@H](O)[C@@H]2F)c(=O)[nH]c1=O", "strain or isolate": "F", "method": "plaque count", "cell line": "VERO", "dose": "0.26 µM", "value": "90%"}

Repeating the final 3 entries:

smiles,strain or isolate,method,cell line,dose,value
Nc1ccn([C@H]2O[C@@H](CO)[C@H](O)[C@H]2F)c(=O)n1,F,virus yield,VERO,0.1 µM,10%
C[C@]1(C(=O)O)C2CCc3cc4[nH]c5ccccc5c4cc3[C@@]2(C)CC[C@@H]1O,KOS,virus yield,VERO,0.5 µM,>95%
CCc1cn([C@@H]2O[C@H](CO)[C@@H](O)[C@@H]2F)c(=O)[nH]c1=O,F,plaque count,VERO,0.26 µM,90%

Percent inhibition refers to the dose given; in toxicity tests it is the harm to the cells. Conditions beyond the fields shown may differ between rows.